Pooled drug test results. Numbers come from NIAID ChemDB, via PubChem.

Shared fields: target-level tests; organism: Hepatitis C virus; protein: Nonstructural protein 5B; read-out: IC50

a–b is a range or a potency band.

smiles | strain | value
Cc1ccc(F)cc1COc1cc(C(=O)O)nn1CC(=O)N[C@H]1CCCC[C@@H]1OCc1ccccc1 |  | 3.1 µM
COc1nc(Nc2ccc3cn[nH]c3c2)nc(NC2CC2)n1 |  | 0.1–1 µg/mL
COc1ccc(-c2ccc(C=C3SC(=S)N(c4ccc(C(=O)O)cc4)C3=O)o2)cc1OC |  | ≤1 µM
Cc1ccc(C(=O)O)c(Nc2ccc(N3CCOCC3)cc2)n1 |  | 0.01–0.1 µg/mL
O=C(O)C1=CCC(=CN2C(=O)C(=Cc3ccc(-c4cc(C(F)(F)F)ccc4Cl)o3)SC2=S)C=C1 |  | ≤1 µM
CNC(=O)c1c(-c2ccc(F)cc2)oc2cc(N(C)S(C)(=O)=O)c(OCCN3CCOCC3)cc12 |  | ≤0.5 µM
O=C(Nc1ccc2[nH]ncc2c1)c1cc(NCCO)c(F)cc1F |  | >10 µg/mL
COc1cc(O)c2c(c1)oc(=O)c1c3cc(O)c(O)cc3oc21 | NS5B | 36.1 µM
C[C@@]1(O)[C@H](O)[C@@H](COP(=O)(O)OP(=O)(O)OP(=O)(O)O)O[C@@]1(C#N)n1ccc(=O)[nH]c1=O |  | 27 µM
COc1nc(Nc2ccc3[nH]ncc3c2)nc(N2CCN(CCO)CC2)n1 |  | 1–10 µg/mL
C=CCOCCC1(C2CCCC2)CC(O)=C(Sc2nc3nc(C)cc(C)n3n2)C(=O)O1 |  | 10–50 µM
CCN(CC)C(=O)c1c(OC)cccc1-c1ccc(C=C2SC(=S)N(c3ccc(C(=O)O)cc3)C2=O)o1 |  | ≤1 µM
CC(C)(C)COc1cc(C(=O)O)nn1CC(=O)N[C@H]1CCCC[C@@H]1OCC1CCCCC1 |  | >12.5 µM
O=C(O)CN1C(=O)C(=Cc2ccc(-c3ccc(Cl)c(Cl)c3)o2)SC1=S |  | ≤1 µM
COC(=O)[C@@H]1CCCN1c1nc(Nc2ccc3cn[nH]c3c2)nc(OC)n1 |  | >10 µg/mL
CCCc1ccc(CCC2(C3CCCC3)CC(=O)CC(=O)O2)cc1 |  | 1–10 µM
Nc1nc(N)c2ncn([C@@H]3CO[C@H](COP(=O)(O)OP(=O)(O)OP(=O)(O)O)O3)c2n1 |  | 10 µM
CN(C)CCNc1cc(C(=O)Nc2ccc3[nH]ncc3c2)c(F)cc1F |  | 0.1–1 µg/mL
CNC(=O)c1c(-c2ccc(F)cc2)oc2cc(-c3ccn[nH]3)c(OC(C)C)cc12 |  | ≤0.5 µM
Cc1cc(N2C(=O)C(=Cc3cc(C(F)(F)F)ccc3Cl)SC2=S)ccc1C(=O)O |  | ≤1 µM
CNC(=O)c1c(-c2ccc(F)cc2)oc2cc(N(CS(C)(=O)=O)OC)c(OCc3ccc(C#N)cc3)cc12 |  | ≤0.5 µM
CCOC1=CC(=O)OC(CCC#Cc2cccc(O)c2)(C2CCCC2)C1 |  | >50 µM
CNC(=O)c1c(-c2ccc(F)cc2)oc2cc(C=O)c(OC(C)C)cc12 |  | ≤0.5 µM
O=C(O)c1ccc(N2C(=O)C(=Cc3ccc(-c4cccc(C(F)(F)F)c4)o3)SC2=S)cc1 |  | ≤1 µM
O=C(Nc1ccc2[nH]ncc2c1)c1cc(NCCN2CCOCC2)c(F)cc1F |  | 1–10 µg/mL
COc1nc(NCCCN2CCOCC2)nc(Nc2ccc3[nH]ncc3c2)n1 |  | >10 µg/mL
O=C1CC(=O)OC(CCc2ccccc2)(C2CCCC2)C1 |  | 10–50 µM
CNC(=O)c1c(-c2ccc(F)c(F)c2)oc2ccc(OC)cc12 |  | ≤0.5 µM
N[C@H]1CSSC[C@@H](C(=O)O)NC(=O)CNC(=O)[C@H](Cc2c[nH]c3ccccc23)NC(=O)[C@@H]2CCCN2C(=O)[C@H](Cc2ccccc2)NC1=O |  | 50 µM
CNC(=O)c1c(-c2ccc(F)cc2)oc2cc(-c3c(C)noc3C)c(OCc3nccs3)cc12 |  | ≤0.5 µM
O=C(Nc1ccc2cn[nH]c2c1)c1cc(NCCN2CCOCC2)c(F)cc1F |  | >10 µg/mL
COc1nc(Nc2ccc3cn[nH]c3c2)nc(-n2ccnc2)n1 |  | >10 µg/mL
NS(=O)(=O)c1ccc(CCNc2cc(C(=O)Nc3ccc4cn[nH]c4c3)c(F)cc2F)cc1 |  | 1–10 µg/mL
O=C(O)C(=O)/C=C(\O)c1cccc(NS(=O)(=O)c2cc(Cl)c(Cl)cc2Cl)c1 |  | 0.3 µM
CCc1cc2c(C(=O)NC)c(-c3ccc(F)cc3)oc2cc1N(CCOC)S(C)(=O)=O |  | ≤0.5 µM
O=C(Nc1ccc2[nH]ncc2c1)c1cc(NCCN2CCCC2)c(F)cc1F |  | 1–10 µg/mL
COCCNc1nc(Nc2ccc3cn[nH]c3c2)nc(OC)n1 |  | 1–10 µg/mL
CNC(=O)c1c(-c2ccc(F)cc2)oc2cc(NS(C)(=O)=O)c(C3CCCO3)cc12 |  | ≤0.5 µM
COCCNc1nc(Nc2ccc3[nH]ncc3c2)nc(OC)n1 |  | 0.1–1 µg/mL
O=C(O)CCN1C(=O)C(=Cc2ccc(-c3cc4ccccc4c4ccccc34)o2)SC1=S |  | ≤1 µM
CN(C)CCNc1cc(C(=O)Nc2ccc3cn[nH]c3c2)c(F)cc1F |  | >10 µg/mL
O=C(O)c1ccc(N2C(=O)C(=Cc3ccc(-c4cc(C(F)(F)F)cc(C(F)(F)F)c4)o3)SC2=S)cc1 |  | ≤1 µM
COc1ccc(CCC2(C3CCCC3)CC(=O)CC(=O)O2)c(C#N)c1 |  | 10–50 µM

Repeating the first 6 entries:

Cc1ccc(F)cc1COc1cc(C(=O)O)nn1CC(=O)N[C@H]1CCCC[C@@H]1OCc1ccccc1 ; value: 3.1 µM
COc1nc(Nc2ccc3cn[nH]c3c2)nc(NC2CC2)n1 ; value: 0.1–1 µg/mL
COc1ccc(-c2ccc(C=C3SC(=S)N(c4ccc(C(=O)O)cc4)C3=O)o2)cc1OC ; value: ≤1 µM
Cc1ccc(C(=O)O)c(Nc2ccc(N3CCOCC3)cc2)n1 ; value: 0.01–0.1 µg/mL
O=C(O)C1=CCC(=CN2C(=O)C(=Cc3ccc(-c4cc(C(F)(F)F)ccc4Cl)o3)SC2=S)C=C1 ; value: ≤1 µM
CNC(=O)c1c(-c2ccc(F)cc2)oc2cc(N(C)S(C)(=O)=O)c(OCCN3CCOCC3)cc12 ; value: ≤0.5 µM

ICn: concentration for n% inhibition. Neighbouring rows are from separate reports. An empty or dashed field is not shown.